The values that follow come from article PMC11273936, “The Antimicrobial Peptide Capitellacin: Chemical Synthesis of Analogues to Probe the Role of Disulphide Bridges and Their Replacement with Vinyl Sulphides” (Antibiotics, 2024).

Read-outs that look alike come from different tables or passages of the source.

For one assay, the system named is S. aureus ATCC 25913. Description: MIC assay, bacteria (CLSI broth microdilution). The assay is classed as cell-based, Staphylococcus aureus. Conditions: Gram positive, CA-MHB, 37 °C with shaking, 18 h, ~5 x10^5 CFU/mL, triplicate, three biological replicates. For orientation: Dilution methods test growth across graded concentrations, often in twofold steps.
Assay [1] has as its system E. coli ATCC 25922. Description: MIC assay, bacteria (CLSI broth microdilution). The assay is classed as cell-based, Escherichia coli. Conditions: for Minimum Inhibitory Concentrations, E. coli ATCC 25922: Gram negative, CLSI broth microdilution, CA-MHB, 37 °C with shaking, 18 h, ~5 x10^5 CFU/mL, triplicate, three biological replicates.
The next assay deals with P. aeruginosa SVB-B9. Description: MIC assay, bacteria (CLSI broth microdilution). Format: cell-based, Pseudomonas aeruginosa. Conditions: Gram negative, CA-MHB, 37 °C with shaking, 18 h, ~5 x10^5 CFU/mL, triplicate, three biological replicates.
A further assay concerns S. aureus ATCC 25923. The conditions noted are these: recombinant capitellacin; ref Panteleev et al. (2020) [12]; cited from earlier work.
The next assay relates to P. aeruginosa PAO1. The conditions noted are these: recombinant capitellacin; ref Panteleev et al. (2020) [12]; cited from earlier work.
The test system of assay [2] is E. coli ATCC 25922. Conditions: recombinant capitellacin; ref Panteleev et al. (2020) [12]; cited from earlier work.

As to `CC[C@@H](C)[C@H]1NC(=O)[C@H](NC(=O)[C@H](NC(=O)[C@@H](CCCNC(=N)N)NC(=O)[C@H]2CCCN2C(=O)[C@H](N)CO)C(C)C)CSSC[C@H](C(=O)N[C@H](Cc2c[nH]c3ccccc23)C(=O)NCC(=O)O)NC(=O)[C@@H](CCCNC(=N)N)NC(=O)[C@@H](CCCNC(=N)N)NC(=O)[C@@H](Cc2ccc(O)cc2)NC(=O)[C@H]2CSSC[C@@H](NC(=O)[C@@H](C(C)C)NC(=O)[C@@H](CCCNC(=N)N)NC1=O)C(=O)N[C@H](CCCNC(=N)N)C(=O)N[C@H](CC(N)=O)C(=O)NCC(=O)N[C@H](C(C)C)C(=O)N2`, the “Minimum Inhibitory Concentrations, S. aureus ATCC 25913” value with S. aureus ATCC 25913 is recorded as over 64 µM. In addition, in the assay on E. coli ATCC 25922 [1], the “Minimum Inhibitory Concentrations, E. coli ATCC 25922” value is on record as 4 µM. Besides, the “fold reduction in activity towards the Gram-negative strains tested” value in the assay on E. coli ATCC 25922 [1] (compared to synthetic capitellacin (1), E. coli and P. aeruginosa) is recorded as 2–4 fold. In addition, the “Minimum Inhibitory Concentrations, P. aeruginosa SVB-B9 (type strain)” value with P. aeruginosa SVB-B9 is listed as 8 µM.

For the molecule `CC[C@H](C)[C@@H]1NC(=O)[C@@H](NC(=O)[C@@H](NC(=O)[C@H](CCCNC(=N)N)NC(=O)[C@@H]2CCCN2C(=O)[C@@H](N)CO)C(C)C)CSSC[C@@H](C(=O)N[C@@H](Cc2c[nH]c3ccccc23)C(=O)NCC(=O)O)NC(=O)[C@H](CCCNC(=N)N)NC(=O)[C@H](CCCNC(=N)N)NC(=O)[C@H](Cc2ccc(O)cc2)NC(=O)[C@@H]2CSSC[C@H](NC(=O)[C@H](C(C)C)NC(=O)[C@H](CCCNC(=N)N)NC1=O)C(=O)N[C@@H](CCCNC(=N)N)C(=O)N[C@@H](CC(N)=O)C(=O)NCC(=O)N[C@@H](C(C)C)C(=O)N2`, in the assay on S. aureus ATCC 25913, the “Minimum Inhibitory Concentrations, S. aureus ATCC 25913” value was over 64 µM. The “Minimum Inhibitory Concentrations, E. coli ATCC 25922” value in the assay on E. coli ATCC 25922 [1] was 1 µM; in the assay with E. coli ATCC 25922 [2], 0.5 µM. Moreover, in the assay with P. aeruginosa SVB-B9, the “Minimum Inhibitory Concentrations, P. aeruginosa SVB-B9 (type strain)” value was 4 µM. Further, in the assay with S. aureus ATCC 25923, the “Minimum Inhibitory Concentrations, S. aureus ATCC 25923” value is 8 µM. For the same molecule, the “Minimum Inhibitory Concentrations, P. aeruginosa PAO1” value in the assay with P. aeruginosa PAO1 is given as 2 µM.
